# PubChem BioAssay AID624099, ICCB-Longwood | 2012
# Assay: 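Knock-downs relieving repression by E2 of an HPV18 LCR luciferase reporter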 (primary screen)
# Cells: human C33A cervical carcinoma cells (HPV-negative) stably expressing BPV1 E2 and an HPV18 LCR luciferase reporter
# Reagents: siRNA pool against human genes, 40 nM
# Duration: 72 h
# Measured: 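Per-well luciferase luminescence, z-scored on each plate against the plate mean and SD with control wells left out, then averaged across three replicate plates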
# Direction: mean z-score and z-score: higher = stronger reporter signal, weaker E2 silencing
# Call rule: 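Mean z ≥ 2 together with z ≥ 2 in two or more of the three replicates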
# Here is a random part of about 21,000 reagents. 497 of all reagents (2.4%) were called active. 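Higher z means weaker E2 silencing; only reporter increases were scored, and knock-downs that hurt cell survival may mask genuine repressor factors.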 A number with no mark means an inactive call. No sequences are given here.
gene,mean z-score,"z-score, replicate A","z-score, replicate B","z-score, replicate C"
TPD52,-0.79,-0.18,-1.03,-1.17
BORCS5,-1.2,-1.29,-1.1,-1.2
BMP8A,-1.13,-1.11,-0.53,-1.75
NKPD1,0.2,0.41,-0.19,0.37
CASTOR2,-0.87,-0.65,-0.68,-1.29
PFN3,0.18,0.17,0,0.37
SYNGR1,-0.04,0.07,-0.08,-0.12
MCEE,0.08,-0.16,0.16,0.23
PNPT1,-1.27,-1.22,-1.21,-1.39
PRKAG3,1.34,0.79,1.76,1.46
ING4,-0.38,0.03,-0.93,-0.23
RABGAP1L,0.6,0.37,0.52,0.9
CECR2,0.93,1.34,0.8,0.66
PREB,-0.02,-0.15,-0.02,0.1
ASIP,3.28 (active),2.85,2.66,4.33
KLF6,-1.93,-1.38,-2.14,-2.25
SMIM43,0.32,0.24,0.28,0.45
OR2M4,0.99,0.9,0.73,1.33
RABGAP1,1.39,1.57,1.15,1.44
TWIST1,0.74,0.76,0.68,0.76
DTX4,-0.68,-0.47,-0.84,-0.72
MYT1L,-0.06,-0.05,-0.12,-0.02
H2BC1,0.12,-0.03,0.3,0.09
CDHR2,0.6,0.85,0.84,0.1
ZNF827,-0.54,-0.41,-0.73,-0.47
F2RL1,-1.03,-0.66,-0.97,-1.48
LOC391298 (retired record),1.03,1.14,0.73,1.21
EIF3FP2,-0.81,-0.72,-0.99,-0.71
C6orf58,2.73 (active),2.39,3.01,2.79
HS3ST1,0.54,0.75,0.31,0.56
OR2L8,0.32,0.32,-0.16,0.79
ELOB,-0.93,-0.97,-0.89,-0.93
PBLD,-0.73,-1.03,-1.08,-0.09
LMOD1,-0.2,0,-0.07,-0.53
GATA4,-1.26,-0.93,-1.17,-1.69
ANKHD1,-1.72,-0.86,-1.32,-2.98
ZNF670,-0.45,-0.35,-0.22,-0.78
KCNQ5,-0.56,-0.72,-0.44,-0.5
RNF214,-0.1,-0.35,0.19,-0.13
CLBA1,-2.13,-2.24,-2.16,-1.99
TOP3B,-1.15,-1.34,-1.03,-1.09
MMADHC,1.35,1.34,1.39,1.32
OR4C3,-0.65,-0.67,-0.46,-0.81
IL6ST,-1.15,-1.19,-1.16,-1.1
SOWAHD,0.28,0.17,0.26,0.41
IQUB,1.53,1.14,2.1,1.34
NPAS1,-0.63,-0.47,-0.78,-0.64
LOC390734 (retired record),-0.06,-0.19,-0.14,0.15
MSL2,-0.89,-0.96,-0.9,-0.82
CTNNBL1,0.31,0.35,0.45,0.13
ARL17A,0.07,0.2,0.1,-0.08
XKR8,1.45,1.51,1.6,1.23
LOC401477 (retired record),0.62,0.91,0.51,0.45
GSTA1,-1.77,-1.85,-1.67,-1.81
S100P,4.06 (active),4.27,4.27,3.64
GADD45B,0.93,0.85,0.79,1.16
BRCC3,0.06,0.4,-0.18,-0.04
